Assay results taken from patent US9518022B2, “Anti-HIV compounds” (priority 2014, dated 2016).

What follows are compounds tested on HIV-1 NL4-3 viral clone engineered to express Renilla luciferase in place of Nef. Conditions: ratio of CC50 over EC50.
Format: cell-based
Experimental: The present assay was used to screen candidate antiviral compounds by quantification of virus spread and production over several rounds of infection in vitro. MT-2, a HIV-1 permissive human T-cell line, was seeded in microtiter plates and was simultaneously treated with serially diluted compound and inoculated with a HIV-1 NL4-3 viral clone engineered to express Renilla luciferase in place of Nef. Following treatment, the culture was incubated for 96 hours. After the incubation, media was collected and used to estimate relative infectivity on the indicator cell line, TZM-bl. Additionally, viral spread was quantified by measuring luciferase activity via a commercially available luciferase substrate. In parallel, MT-2 cells were seeded and inoculated with mock virus in the presence of serially diluted compound. Compound toxicity was quantified 96 hours after treatment with AlamarBlue.
MT-2 (NIH Aids reagent program 237) cells were grown and maintained in an incubator at 37° C. with 5% CO2 using a basal medium of RPMI-1640 supplemented with 10% FBS. Cells were seeded in 100 μl at 2×10^4 cells/well in white walled 96-well microtiter plates. Candidate compounds were 3-fold serially diluted in the appropriate solvent. Solvent without compound was used as a no drug reference. Cells were inoculated at a multiplicity of 0.027 with an HIV-1 NL4-3 virus stock engineered to express Renilla luciferase in place of Nef. Diluted virus stock was first added to serially diluted compound. Compound and virus were delivered to cells in an equal volume (100 μl) and treated cultures were returned to the incubator for 96 hours. In parallel, plates for cytotoxicity estimates were prepared in the same way except cells were plated in clear walled 96-well microtiter plates and were mock infected.
At 96 hours post infection, 100 μl virus containing culture supernatant was collected from the treated and infected cultures and serially diluted in DMEM supplemented with 10% FBS, 1% sodium pyruvate, and 20 μg/ml DEAE dextran. One day prior, TZM-bl (ATCC PTA-5659) were cultured in basal medium of DMEM supplemented with 10% FBS and 1% sodium pyruvate and seeded at 7.5×10^3 cells/well in black walled 96-well microtiter plates. Diluted virus containing culture supernatant was transferred to TZM-bl cultures and incubated for 48 hours at 37° C. with 5% CO2. Infected TZM-bl cultures were fixed for 5 minutes with a 1% formaldehyde/0.2% gluteraldehyde/PBS solution then washed three times with PBS. Fixed cultures were incubated at 37° C. for 25 minutes with a 200 μg/ml MUG (4-Methylumbelliferyl β-D-[…])/DMEM solution. The reaction was stopped with an equal volume of 1M sodium carbonate and read at 360, 449 nm on fluorescence plate reader (Biotek).
At 96 hours post infection, 100 μl of culture supernatant was removed from the treated and infected cultures and EnduRen live cell substrate (Promega) was added at a final concentration 1.3 μg/ml. Cells were incubated for 1.5 hours at 37° C. with 5% CO2 then read on a luminescence plate reader (Biotek).
For all assays, data was imported into Accelrys Assay Explorer 3.3. In Assay Explorer, % inhibition (antiviral or cytotoxicity) was calculated using the solvent control as a reference by the following equation: 1−(SignalCompound/SignalReference). The % Inhibition and compound concentration data was fitted using the following 4-parameter logistic model (Assay Explorer model 42):
[formula] where X is compound concentration, Y is % inhibition, D is the maximum % Inhibition (constrained to 100%), C is IC50 value or inflection point, B is the hill slope, and A is the minimum % inhibition (constrained to 0%). The IC50 value is reported as the EC50 or CC50 depending on the assay endpoint. EC50 represents the effective concentration at which virus replication is inhibited by 50 percent. CC50 represents the concentration that results in the death of 50 percent of the host cells. […]

Q: Which SI does the source give for `COc1cc2c(cc1OCc1ccccc1)CCNC2/C=C/c1ccc2c(ccn2C(=O)OC(C)(C)C)c1` (stereo not drawn) [CM, tert-butyl 5-[(E)-2-[6-(benzyloxy)-7-methoxy-1,2,3,4-tetrahydroisoquinolin-1-yl]ethenyl]-1H-indole-1-carboxylate] here?
A: The SI was 7.7.

Q: For `COc1ncc(/C=C/C2NCCc3cc(OCc4ccccc4)c(OC)cc32)cn1` (stereo not drawn) [DD, 6-(benzyloxy)-7-methoxy-1-[(E)-2-(2-methoxypyrimidin-5-yl)ethenyl]-1,2,3,4-tetrahydroisoquinoline], which SI is on record?
A: Its SI is 9.

Q: `COc1cc(/C=C/C2NCCc3cc(OCc4ccccc4)c(OC)cc32)c(N(C)C)cc1OC` (stereo not drawn) [CT, 2-[(E)-2-[6-(benzyloxy)-7-methoxy-1,2,3,4-tetrahydroisoquinolin-1-yl]ethenyl]-4,5-dimethoxy-N,N-dimethylaniline] was tested. Which SI did it give?
A: The SI was 45.

Q: How did the SI turn out when `COc1cc2c(cc1OCc1ccccc1)CCNC2/C=C/c1ccc2ccn(C(=O)OC(C)(C)C)c2c1` (stereo not drawn) [CS, tert-butyl 6-[(E)-2-[6-(benzyloxy)-7-methoxy-1,2,3,4-tetrahydroisoquinolin-1-yl]ethenyl]-1H-indole-1-carboxylate] was run?
A: Its SI is 6.7.

Q: How did the SI turn out when `COc1cc2c(cc1OCc1ccccc1)CCNC2/C=C/c1cccnc1N(C)C` (stereo not drawn) [CU, 3-[(E)-2-[6-(benzyloxy)-7-methoxy-1,2,3,4-tetrahydroisoquinolin-1-yl]ethenyl]-N,N-dimethylpyridin-2-amine] was run?
A: The SI was 14.

Q: For `COc1cc2c(cc1OCc1ccccc1)CCNC2/C=C/c1cccc2c1ccn2C(=O)OC(C)(C)C` (stereo not drawn) [CK, tert-butyl 4-[(E)-2-[6-(benzyloxy)-7-methoxy-1,2,3,4-tetrahydroisoquinolin-1-yl]ethenyl]-1H-indole-1-carboxylate], which SI is on record?
A: Its SI is 7.4.

Q: `COc1cc2c(cc1/C=C/C1NCCc3cc(OCc4ccccc4)c(OC)cc31)OCO2` (stereo not drawn) [CR, 6-(benzyloxy)-7-methoxy-1-[(E)-2-(6-methoxy-2H-1,3-benzodioxol-5-yl)ethenyl]-1,2,3,4-tetrahydroisoquinoline] was tested. Which SI did it give?
A: Its SI is 27.2.

Q: For `COc1cc2c(cc1/C=C/C1NCCc3cc(OCc4ccccc4)c(OC)cc31)OCCO2` (stereo not drawn) [CQ, 6-(benzyloxy)-7-methoxy-1-[(E)-2-(7-methoxy-2,3-dihydro-1,4-benzodioxin-6-yl)ethenyl]-1,2,3,4-tetrahydroisoquinoline], which SI is on record?
A: Its SI is 23.7.

Q: Which SI does the source give for `COc1cc2c(cc1OCc1ccccc1)CCNC2/C=C/c1cccc2ccn(C(=O)OC(C)(C)C)c12` (stereo not drawn) [CN, tert-butyl 7-[(E)-2-[6-(benzyloxy)-7-methoxy-1,2,3,4-tetrahydroisoquinolin-1-yl]ethenyl]-1H-indole-1-carboxylate] here?
A: The SI was 11.

Q: For `COc1cc2c(cc1OCc1ccccc1)CCNC2/C=C/c1cccc2[nH]ccc12` (stereo not drawn) [CL, 6-(benzyloxy)-1-[(E)-2-(1H-indol-4-yl)ethenyl]-7-methoxy-1,2,3,4-tetrahydroisoquinoline], which SI is on record?
A: Its SI is 4.66.

Q: With `COc1cc2c(cc1OCc1ccccc1)CCNC2/C=C/c1cccc(S(C)(=O)=O)c1` (stereo not drawn) [CP, 6-(benzyloxy)-1-[(E)-2-(3-methanesulfonylphenyl)ethenyl]-7-methoxy-1,2,3,4-tetrahydroisoquinoline] as the compound, how does the SI read?
A: The SI was 6.7.

Q: How did the SI turn out when `COc1cc2c(cc1OCc1ccccc1)CCNC2/C=C/c1ccc(F)c(O)c1F` (stereo not drawn) [CO, 3-[(E)-2-[6-(benzyloxy)-7-methoxy-1,2,3,4-tetrahydroisoquinolin-1-yl]ethenyl]-2,6-difluorophenol] was run?
A: The SI was 1.7.
